This is an account of results in paper doi:10.1101/772699.

For series [1], the system named is SEP3ΔC + SAP54. Description: EMSA supershift. The following applies: 1 ul of 13.3 uM SAP54, supershift; protein translated in vitro. In general terms: A gel shift assay detects complexes by their altered migration in electrophoresis.
In series [2] the test system is SEP3 + SAP54. Description: EMSA supershift. Particulars: 1 ul of 13.3 uM SAP54, supershift; protein translated in vitro.
For series [3], the system named is AP1 + SAP54. Description: EMSA supershift. Particulars: 1 ul of 13.3 uM SAP54, results similar to SEP3; protein translated in vitro.
Series [4] deals with T1, SAP54 (Aster Yellows-Witches' Broom phytoplasma (AY-WB)) (UniProt Q2NJQ2).
T1 sequence (looked up, limits assumed): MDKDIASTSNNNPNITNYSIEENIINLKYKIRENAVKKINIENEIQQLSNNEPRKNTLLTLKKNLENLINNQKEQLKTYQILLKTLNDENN
Description: EMSA. The following applies: SAP54 without MTF.

Construct, isoform or probe ends are uncertain for at least one entry. For some of these results: A negative result means that nothing was seen under these conditions. For some of these results: Tags and fusion partners may be left off the protein sequences shown. For some of these results: At least one verdict rests on a figure or table, not on a statement of the authors.

Consider “TCGAGGTCGGAAATTTAATTATATTCCAAATAAGGAAAGTATGGAACGTTCGACGGTATCGATAAGCTTGATGAAATTTAATTATATTCCAAATAAGGAAAGTATGGAACGTTATCGAATTCCTGCAGCCCGGGGGATCCACTAGTTCTAG (double strand) [two-CArG-box probe]”, for which the binding result in series [1] is “binds”; in series [2], “binds”; in series [3] it was “binds”; in series [4], “no binding”.
